# Laboratory results published in patent publication US20070196359A1, “Halosuccinimide biocide” (Minntech Corporation, priority 2006, published 2007).
# Experiment: Corrosion rate of brass coupons, ASTM G31-72 (04) (FIG. 4-6)
SMILES,"Corrosion Rate (NBS, 0.05% Mazon RI 246) [mg/min]","Corrosion Rate (NBS, 0.10% Mazon RI 246) [mg/min]","Corrosion Rate (NBS, 0.15% Mazon RI 246) [mg/min]","Corrosion Rate (NBS, 0.25% Mazon RI 246) [mg/min]","corrosion rate relative to the rate usually observed for water alone (about 1.0% NBS, pH about 3 to about 7, 25° C)","Corrosion Rate (1% NCS, 0.05% benzotriazole) [mg/min]","Corrosion Rate (1% NCS, 0.1% benzotriazole) [mg/min]"
"O=C1CCC(=O)N1Br [NBS, N-bromosuccinimide]",0.38,0.12,0.08,0.05,about three fold,,
"O=C1CCC(=O)N1Cl [NCS, N-chlorosuccinimide]",,,,,,0.02,0.02
